{"source": "paper PMC8927147", "about": "“Global profiling of regulatory elements in the histone benzoylation pathway” (Nature Communications, 2022)", "tested_on": "BY4742 cells", "test": "HPLC-MS/MS analysis of cellular benzoyl-CoA", "assay_type": "cell-based, Saccharomyces cerevisiae", "details": "BY4742 cells treated with 10 mM sodium benzoate for 6 h, LC-MS/MS, single experiment", "note": "Values joined by “and” are separate entries in the source; they are usually repeats but may differ in a detail not shown here. Equal values may be shown once.", "data": [{"compound": "CC(C)(COP(=O)(O)OP(=O)(O)OC[C@H]1O[C@@H](n2cnc3c(N)ncnc32)[C@H](O)[C@@H]1OP(=O)(O)O)[C@@H](O)C(=O)NCCC(=O)NCCSC(=O)c1ccccc1", "note": "[benzoyl-CoA]", "values": [{"measurement": "cellular concentration of benzoyl-CoA", "setting": "MRM, standard curve", "result": "approximately 0.33 μM"}, {"measurement": "cellular concentration of benzoyl-CoA", "result": "~296 ng/mL and ~296.35 ng/mL"}]}]}
